From the supplement of paper PMC9931576
Human monoclonal antibodies against the spike receptor-binding domain (heavy:light variable regions). IC50 against pseudoviruses bearing the spike of naturally observed variants; lower = stronger; >10 µg/ml means not reached at the top dose. No active / inactive call. The stated detection limit is 0.0005 µg/ml; values near or below 0.001 µg/ml lie at the floor of the assay.

Columns and labels:
Experiment in all cases: pseudovirus neutralization IC50; higher = weaker neutralization
[1] = target: SARS-CoV-2 Omicron BA.1 spike pseudovirus
Experimental: (§1)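 Single-round VSV luciferase pseudovirus mixed with antibody dilutions for 1 h and put on Huh-7 cells for about a day; IC50 from the dose curve.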

[2] = target: SARS-CoV-2 Omicron BA.2 spike pseudovirus
Experimental: as §1

[3] = target: SARS-CoV-2 Omicron BA.2.75 spike pseudovirus
Experimental: as §1

[4] = target: SARS-CoV-2 Omicron BA.5 spike pseudovirus
Experimental: as §1

[5] = target: SARS-CoV-2 Omicron BQ.1.1 spike pseudovirus
Experimental: as §1

[6] = target: SARS-CoV-2 Omicron XBB spike pseudovirus
Experimental: as §1

[7] = target: SARS-CoV-2 early D614G spike pseudovirus
Experimental: as §1

B1: BD55-5974 (protein)
chain 1: EVQLVQSGAEVKKPGESLKISCKGSGYSFTSYWIGWVRQMPGKGLEWMGIVYPGDSDIKYSPPFQGQVTISADQSISTAYLQWSSLKASDTAIYYCARRHYFASGSSRGDFDYWGQGTLVTVSS
chain 2: QSVLTQPPSASGTPGQRVTISCSGSTSNIGSDSVHWYQQFPGTAPKLLIYGDDQRPSGVPDRFTGSKSGTSASLAISGLQSEDEADYYCAAWDDSLNGWVFGGGTKLTVL
- pseudovirus neutralization IC50 [1]: > 10 µg/mL
- pseudovirus neutralization IC50 [2]: > 10 µg/mL
- pseudovirus neutralization IC50 [3]: > 10 µg/mL
- pseudovirus neutralization IC50 [4]: > 10 µg/mL
- pseudovirus neutralization IC50 [5]: > 10 µg/mL
- pseudovirus neutralization IC50 [6]: > 10 µg/mL
- pseudovirus neutralization IC50 [7]: > 10 µg/mL

B2: BD55-6020 (protein)
chain 1: QITLKESGQTLVKPTQTLTLTCTFSGFSLNTRGVSVGWIRQPPGEAPEWLALIYWDDDTRYPPSLMSRVAITKDTSKNQVVLTMTNMAPVDTATYYCAHGVDDYDSNGYYAYYFDYWGQGTRVTVSS
chain 2: QSALTQPASVSGSPGQSITISCSVTSSDIDLYTYVSWFQHHPGKAPKLIIYNFTKRPSGVSPRFSGSKSGNTASLTLSGLQAEDEAYYYCSSYTGSSTFYVFGPGTKVTVL
- pseudovirus neutralization IC50 [1]: > 10 µg/mL
- pseudovirus neutralization IC50 [2]: > 10 µg/mL
- pseudovirus neutralization IC50 [3]: > 10 µg/mL
- pseudovirus neutralization IC50 [4]: > 10 µg/mL
- pseudovirus neutralization IC50 [5]: > 10 µg/mL
- pseudovirus neutralization IC50 [6]: > 10 µg/mL
- pseudovirus neutralization IC50 [7]: > 10 µg/mL

B3: BD55-5959 (protein)
chain 1: EVQLVESGGGLVQPGRSLRLSCAASGFTFGDYAMHWVRQAPGKGLEWVSGISWNSGDIGYADSVKGRFTISRDNAKNSLYLQMNSLRAEDTAFYYCVKDMGYGDLTYYYGMDVWGQGTTVTVSS
chain 2: QSALTQPASVSGSPGQSITISCTGISSDVGSYNLVSWYQHYPGKAPKLMIYEGNKRPSGVSNRFSGSESGNTASLTISGLQAEDEADYFCCSYAGNSTRVFGGGTKLTVL
- pseudovirus neutralization IC50 [1]: > 10 µg/mL
- pseudovirus neutralization IC50 [2]: > 10 µg/mL
- pseudovirus neutralization IC50 [3]: > 10 µg/mL
- pseudovirus neutralization IC50 [4]: > 10 µg/mL
- pseudovirus neutralization IC50 [5]: > 10 µg/mL
- pseudovirus neutralization IC50 [6]: > 10 µg/mL
- pseudovirus neutralization IC50 [7]: > 10 µg/mL

B4: BD55-5965 (protein)
chain 1: QVQLVQSGAEVKKPGASVKVSCKASGYSFTSYDINWVRQGTGQGLEWMGWMNPNSGKTDYAHKFQGRVTMTRNTSISTAYMEMSSLRSEDTAVYYCAITYQLPLSHYYYAMDVWGQGTTVTVSS
chain 2: DIQMTQSPSSLSASVGDRVTITCRASQSISTYLNWYQQKPGKAPNLLIYDASSLQGGVPSRFSGRGSGTDFTLTISSVQPEDFAIYYCQQSYSFPSAFGQGTRVEIK
- pseudovirus neutralization IC50 [1]: > 10 µg/mL
- pseudovirus neutralization IC50 [2]: > 10 µg/mL
- pseudovirus neutralization IC50 [3]: > 10 µg/mL
- pseudovirus neutralization IC50 [4]: > 10 µg/mL
- pseudovirus neutralization IC50 [5]: > 10 µg/mL
- pseudovirus neutralization IC50 [6]: > 10 µg/mL
- pseudovirus neutralization IC50 [7]: > 10 µg/mL

B5: BD55-5961 (protein)
chain 1: EVQLVESGGGLVKPGGSLRLSCAASGFSFSTYSMYWVRQAPGKGLEWVACLSSSGSLIFYADSVKGRFSISRDNAKNSLYLQMNSLRAEDTAVYYCARESDMPRGVDFDYWGQGTLVAVSS
chain 2: DIQMTQSPSSLSASVGDRVTITCRASQSIGNYLNWYQQKPGKAPKLLIYAASSLQSGVPSRFSGSGSGTDFTLTISSLQPEDFATYYCQQGYSTPGVTFGPGTKVDIK
- pseudovirus neutralization IC50 [1]: > 10 µg/mL
- pseudovirus neutralization IC50 [2]: > 10 µg/mL
- pseudovirus neutralization IC50 [3]: > 10 µg/mL
- pseudovirus neutralization IC50 [4]: > 10 µg/mL
- pseudovirus neutralization IC50 [5]: > 10 µg/mL
- pseudovirus neutralization IC50 [6]: > 10 µg/mL
- pseudovirus neutralization IC50 [7]: > 10 µg/mL

B6: BD55-6029 (protein)
chain 1: EVQLLQSGGGLVQPGGSLRLSCAASGFTFSSYAMSWLRQAPGKGLEWVSSITKSGDGTFYADSVKGRFTMSRDNSKSTLYLQINSLTAEDSAVYYCAKDQGSAWYDVFDMWGQGTMVTVSS
chain 2: DIQMTQSPSSLSASVGDRVTITCRASQYIRNYLNWYQQKPGKAPKLLIYAASSLQDGVPSRFSGSGSGTDFTLTINSLQPEDFATYYCQQSYNTPQLTFGGGTKVEIK
- pseudovirus neutralization IC50 [1]: > 10 µg/mL
- pseudovirus neutralization IC50 [2]: > 10 µg/mL
- pseudovirus neutralization IC50 [3]: > 10 µg/mL
- pseudovirus neutralization IC50 [4]: > 10 µg/mL
- pseudovirus neutralization IC50 [5]: > 10 µg/mL
- pseudovirus neutralization IC50 [6]: > 10 µg/mL
- pseudovirus neutralization IC50 [7]: > 10 µg/mL

B7: BD55-6025 (protein)
chain 1: QVQLVQSGAEVKKPGSSVKVSCKTSGGTFSSNAISWVRQAPGQGLEWLGRIIPIFGTSTYAQKFQGRVTMTADESTGTAYMELSSLTSEDTAVYYCGRAGVLGGAGSYYIVDYWGQGSLVTVSS
chain 2: NFMLTQPHSVSESPGKTVTISCARSSGSIDSDYVQWYQQRPGSAPTTVIYEHNQTPSGVPDRFSGSIDSSSNSASLTISGLKTEDEADYYCQSYDSASQAWVFGGGTKVTVL
- pseudovirus neutralization IC50 [1]: > 10 µg/mL
- pseudovirus neutralization IC50 [2]: > 10 µg/mL
- pseudovirus neutralization IC50 [3]: > 10 µg/mL
- pseudovirus neutralization IC50 [4]: > 10 µg/mL
- pseudovirus neutralization IC50 [5]: > 10 µg/mL
- pseudovirus neutralization IC50 [6]: > 10 µg/mL
- pseudovirus neutralization IC50 [7]: 0.108 µg/mL

B8: BD55-1141 (protein)
chain 1: QLQLQESGPGLVKPSEILSLTCTVSGGSVTSSSFYWGWIRQPPGKGLEWVGSVYYTGITYYSTSLKSRLTLAVDTSKNQFSLNLTSVTAADTAVYYCARLSRLVGPDLFDLWGQGTMVTVSS
chain 2: QSALTQPASVSGSRGQSITISCTGTSGDVGSNDLVSWYQQHPGKAPKLMIYEVTKRPSGVSNRFSGSKSGNTASLTISGLQAEDEADYYCCSYAGIPKRVFGGGTKLTVL
- pseudovirus neutralization IC50 [1]: > 10 µg/mL
- pseudovirus neutralization IC50 [2]: > 10 µg/mL
- pseudovirus neutralization IC50 [3]: > 10 µg/mL
- pseudovirus neutralization IC50 [4]: > 10 µg/mL
- pseudovirus neutralization IC50 [5]: > 10 µg/mL
- pseudovirus neutralization IC50 [6]: > 10 µg/mL
- pseudovirus neutralization IC50 [7]: > 10 µg/mL

B9: BD55-6016 (protein)
chain 1: EVQLVESGGGLIQPGGSLRLSCAVSGFSMNSNYMTWVRQAAGKGLEWISVIYNGGGTYYADSVKGRFTISRDIPNNTLYLQMNSLRAEDTAVYYCARGKNYGDDWFDPWGQGTQVTVSS
chain 2: EIVLTQSPATLSLSPGDRATLSCRASQSDSRYLAWYQQKPGQAPRLLIYDVSNRATAIPARFSGSGSGTEFTLTISSLEPEDFAVYYCQQRNRWPPTFTFGQGTKLEIK
- pseudovirus neutralization IC50 [1]: > 10 µg/mL
- pseudovirus neutralization IC50 [2]: > 10 µg/mL
- pseudovirus neutralization IC50 [3]: > 10 µg/mL
- pseudovirus neutralization IC50 [4]: > 10 µg/mL
- pseudovirus neutralization IC50 [5]: > 10 µg/mL
- pseudovirus neutralization IC50 [6]: > 10 µg/mL
- pseudovirus neutralization IC50 [7]: > 10 µg/mL

B10: BD55-6018 (protein)
chain 1: QEELVESGGGVVQPGRSLRLSCAASGFTFDSYGMHWVRQAPGKGLEWVAVIWYNENTKYYADSVKGRFTVSRDNSKNTLNLQMDSLRAEDTAVYYCTRIVIGHAFDVWGQGTMVTVSS
chain 2: DIQLTQSPSSLSASVGDRVTITCRASETIGNKLNWYQQRPGKAPKLLIYAASHLQSGVPSRFSARGSGTDFTLSISGLQPEDFATYYCQQSFSSPLTFTFGPGTKVDIK
- pseudovirus neutralization IC50 [1]: > 10 µg/mL
- pseudovirus neutralization IC50 [2]: > 10 µg/mL
- pseudovirus neutralization IC50 [3]: > 10 µg/mL
- pseudovirus neutralization IC50 [4]: > 10 µg/mL
- pseudovirus neutralization IC50 [5]: > 10 µg/mL
- pseudovirus neutralization IC50 [6]: > 10 µg/mL
- pseudovirus neutralization IC50 [7]: > 10 µg/mL

B11: BD55-5993 (protein)
chain 1: QLRLQESGPGLAKPSETLSLTCTVSGGSISSRSYLWGWVRQPPGKRLEWIGSFQNTGSTHHNPSLKSRVTISVDTSKNQFSLKLSSVTAADTAIYYCARHGGGDFYFDYWGLGTLVTVSS
chain 2: DIQMTQSPSTLSASVGDRVTITCRASQSIHTWLAWYQQIPGKAPNLLIYKASILESGVSLRFSGSGSGTEFTLTISSLQPDDFATYYCQQYSTFYPTFGQGTKV
- pseudovirus neutralization IC50 [1]: > 10 µg/mL
- pseudovirus neutralization IC50 [2]: > 10 µg/mL
- pseudovirus neutralization IC50 [3]: > 10 µg/mL
- pseudovirus neutralization IC50 [4]: > 10 µg/mL
- pseudovirus neutralization IC50 [5]: > 10 µg/mL
- pseudovirus neutralization IC50 [6]: > 10 µg/mL
- pseudovirus neutralization IC50 [7]: > 10 µg/mL

B12: BD55-5956 (protein)
chain 1: QVQLVQSGAEVKKPGASVKVSCKASGYTFNSYDINWVRQATGQGLQWMGWMNPNSGNTGYAHKFQGRLTMTRNTSISTAYMELSGLRSEDTAVYYCAIVTMVRGAIDYFQYGMDVWGQGTTVTVSS
chain 2: DIQMTQSPSSLSASVGDRVTITCRASQSISYYLNWYQQKPGKAPKLLIYGASSLQSGVPSRFSGSGSGTDFTLTIRSLQPEDFATYSCQQSYSTPYNFGQGTKVEI
- pseudovirus neutralization IC50 [1]: > 10 µg/mL
- pseudovirus neutralization IC50 [2]: > 10 µg/mL
- pseudovirus neutralization IC50 [3]: > 10 µg/mL
- pseudovirus neutralization IC50 [4]: > 10 µg/mL
- pseudovirus neutralization IC50 [5]: > 10 µg/mL
- pseudovirus neutralization IC50 [6]: > 10 µg/mL
- pseudovirus neutralization IC50 [7]: > 10 µg/mL
